Compound potency records, mixed from different reports. Data source: NIAID ChemDB in PubChem.

Shared fields: whole-cell or culture tests; species: Mycobacterium avium complex; measure: MIC

Rows are shuffled and stem from different studies. Two numbers with a dash give a range or band.

SMILES,strain,value
C[C@@H](O)[C@H]1C(=O)N2C(C(=O)O)=C(SCCN=CN)C[C@H]12,CIPT 140310006,10 µg/mL
CCC(=O)O[C@H]1[C@H](C)[C@@H](O[C@@H]2O[C@H](C)C[C@H](N(C)C)[C@H]2O)C(C)(O)C[C@@H](C)/C(=N\OCCCOc2ccccc2)[C@H](C)[C@@H](O)[C@](C)(O)[C@@H](CC)OC(=O)[C@@H]1C,20039 (clarithromycin-susceptible),12.5 µg/mL
COc1ccc(C(F)(F)F)cc1NCc1cnc2nc(N)nc(N)c2c1C,NJ3404,≤0.13 µg/mL
Cc1cccc(CSc2ccccn2)c1,NJ211,>12.8 µg/mL
NNC(=O)c1ccncc1,E12337,0.08–0.1 µg/mL
Cc1c(CNc2cc(C(F)(F)F)ccc2Br)cnc2nc(N)nc(N)c12,NJ168,≤0.13 µg/mL
CC[C@H]1OC(=O)[C@H](C)[C@@H](OC(=O)c2ccccc2)[C@H](C)[C@@H](O[C@@H]2O[C@H](C)C[C@H](N(C)C)[C@H]2O)C(C)(O)C[C@@H](C)/C(=N\OCCCOc2ccccc2)[C@H](C)[C@@H](O)[C@]1(C)O,20096 (clarithromycin-resistant),6.25 µg/mL
Cc1cc(C)nc(NS(=O)(=O)c2ccc(N)cc2)n1,LPR,32 µg/mL
Cc1cccc2c(=O)n3c(nc12)C(=O)c1ccccc1-3,19075,5 µg/mL
CCCCCCC(=O)O[C@H]1[C@H](C)[C@@H](O[C@@H]2O[C@H](C)C[C@H](N(C)C)[C@H]2O)C(C)(O)C[C@@H](C)/C(=N\OCCCOc2ccccc2)[C@H](C)[C@@H](O)[C@](C)(O)[C@@H](CC)OC(=O)[C@@H]1C,20039 (clarithromycin-susceptible),3.13 µg/mL
O=c1nc(SCc2ccccn2)c2[nH]cnc2[nH]1,NJ211,>12.8 µg/mL
Cc1c(CNc2ccc(Cl)c(Cl)c2)cnc2nc(N)nc(N)c12,NJ168,≤0.13 µg/mL
CC[C@H]1OC(=O)[C@H](C)[C@@H](O[C@H]2C[C@@](C)(OC)[C@@H](O)[C@H](C)O2)[C@H](C)[C@@H](O[C@@H]2O[C@H](C)C[C@H](N(C)C)[C@H]2O)[C@](C)(OC)C[C@@H](C)C(=O)[C@H](C)[C@@H](O)[C@]1(C)O,N-93043,2 µg/mL
CCCCCCCCC(=O)O[C@H]1[C@H](C)OC(O[C@H]2[C@H](C)[C@@H](O[C@@H]3O[C@H](C)C[C@H](N(C)C)[C@H]3O)C(C)(O)C[C@@H](C)/C(=N\OCCCOc3ccccc3)[C@H](C)[C@@H](O)[C@](C)(O)[C@@H](CC)OC(=O)[C@@H]2C)C[C@@]1(C)OC,20096 (clarithromycin-resistant),3.13 µg/mL
Cc1c(CNc2cccc3ncccc23)cnc2nc(N)nc(N)c12,NJ168,≤0.13 µg/mL
CC(C)N=C(N)N(OCCCOc1cc(Cl)c(Cl)cc1Cl)C(=N)N,FAR,32 µg/mL
CC[C@H]1OC(=O)[C@H](C)[C@@H](O[C@H]2C[C@@](C)(OC)[C@@H](O)[C@H](C)O2)[C@H](C)[C@@H](O[C@@H]2O[C@H](C)C[C@H](N(C)C)[C@H]2O)[C@](C)(OC)C[C@@H](C)C(=O)[C@H](C)[C@@H](O)[C@]1(C)O,Isolate 90-0779,3 µg/mL
COc1ccc(/C(C)=N/NC(N)=S)cc1,109,0.125 µg/mL
CCCCCCCCO[C@@H]1O[C@H]([C@@H](COCc2ccccc2)O[C@H]2O[C@H](CO)[C@@H](O)[C@@H]2O)[C@H](OCc2ccccc2)[C@H]1OCc1ccccc1,NJ168,>128 µg/mL
O=C1c2cc(Br)ccc2-n2c1nc1ccccc1c2=O,19075,0.25 µg/mL
CCc1nc(N)nc(N)c1-c1ccc(Cl)cc1,DW16,64 µg/mL
CCCCCCCCO[C@@H]1O[C@@H]([C@H](COC)O[C@H]2O[C@H](COCc3ccccc3)[C@@H](OCc3ccccc3)[C@@H]2OCc2ccccc2)[C@H](OC)[C@H]1OC,NJ304,>128 µg/mL
CCCCCCCCCCCCNNC(=O)O[C@H]1[C@H](O[C@@H]2[C@@H](C)[C@H](O[C@H]3C[C@@](C)(OC)[C@@H](OC(C)=O)[C@H](C)O3)[C@@H](C)C(=O)O[C@H](CC)[C@@](C)(O)[C@H](O)[C@@H](C)/C(=N/OCCCC3CCCCC3)[C@H](C)CC2(C)O)O[C@H](C)C[C@@H]1N(C)C,20092 (clarithromycin-resistant),50 µg/mL
CCCCCCCCO[C@H]1OC(CO[C@H]2O[C@H](COCc3ccccc3)[C@@H](OCc3ccccc3)[C@@H]2OCc2ccccc2)[C@@H](OC)[C@@H]1OC,NJ211,>128 µg/mL
Cc1c(CNc2ccccc2OC(F)F)cnc2nc(N)nc(N)c12.O,NJ3404,≤0.13 µg/mL
CC1(C)S[C@@H]2[C@H](NC(=O)[C@H](C(=O)[O-])c3ccsc3)C(=O)N2[C@H]1C(=O)[O-].[Na+].[Na+],CIPT 140310005,50 µg/mL
CCCCCCCCO/N=C1\[C@H](C)CC(C)(O)[C@H](O[C@@H]2O[C@H](C)C[C@H](N(C)C)[C@H]2O)[C@@H](C)[C@H](O[C@H]2C[C@@](C)(OC)[C@@H](OC(C)=O)[C@H](C)O2)[C@@H](C)C(=O)O[C@H](CC)[C@@](C)(O)[C@H](O)[C@H]1C,20039 (clarithromycin-susceptible),1.56 µg/mL
CCCCCCCCO[C@H]1OC([C@@H](COC)O[C@H]2O[C@H]([C@@H](O)CO)[C@@H](O)[C@@H]2O)[C@@H](OC)[C@@H]1OC,NJ211,>12.8 µg/mL
CC1(C)N=C(N)N=C(N)N1OCCCOc1cc(Cl)c(Cl)cc1Cl,OFOO7A,8 µg/mL
CCOc1ccc(OCC)c(N(C)Cc2cnc3nc(N)nc(N)c3c2C)c1,NJ3404,≤0.13 µg/mL
NC[C@H]1O[C@H](O[C@H]2[C@H](O)[C@@H](O[C@H]3O[C@H](CO)[C@@H](O)[C@H](N)[C@H]3O)[C@H](N)C[C@@H]2N)[C@H](O)[C@@H](O)[C@@H]1O,CIPT 140310006,5 µg/mL
CCCCCCCCO[C@@H]1O[C@@H](C(CO[C@@H]2O[C@@H](C(O)CO)[C@H](O)[C@H]2O)OC)[C@H](OC)[C@H]1OC,NJ211,>128 µg/mL
C[C@@H]1CN(c2c(F)c(N)c3c(=O)c(C(=O)O)cn(C4CC4)c3c2F)C[C@H](C)N1,Isolate 90-1253,0.5 µg/mL
NNC(=O)c1ccncc1,N-251 (HIV-),4 µg/mL
CCOC(=O)c1ccc2c(c1)C(=O)c1nc3ccccc3c(=O)n1-2,101,1 µg/mL
COc1ccc(CSc2ccccn2)cc1,NJ211,>12.8 µg/mL
COc1cc(NCc2cnc3nc(N)nc(N)c3c2C)cc(C(F)(F)F)c1,NJ211,≤0.13 µg/mL
CCCCO/N=C1\[C@H](C)CC(C)(O)[C@H](O[C@@H]2O[C@H](C)C[C@H](N(C)C)[C@H]2O)[C@@H](C)[C@H](O[C@H]2C[C@@](C)(OC)[C@@H](OC(C)=O)[C@H](C)O2)[C@@H](C)C(=O)O[C@H](CC)[C@@](C)(O)[C@H](O)[C@H]1C,20039 (clarithromycin-susceptible),>50 µg/mL
COc1cccc(CSc2ccccn2)c1,NJ211,>12.8 µg/mL
O=C1c2cc(Cl)ccc2-n2c1nc1ncccc1c2=O,101,5 µg/mL
CO[C@H]1/C=C/O[C@@]2(C)Oc3c(C)c(O)c4c(=O)c(c5oc6cc(N7CCN(CC(C)C)CC7)cc(=O)c6nc5c4c3=C2O)NC(=O)/C(C)=C\C=C\[C@H](C)[C@H](O)[C@@H](C)[C@@H](O)[C@@H](C)[C@H](OC(C)=O)[C@@H]1C,N-251 (HIV-),0.05 µg/mL
Cc1cccc2nc3n(c(=O)c12)-c1ccccc1C3=O,19075,5 µg/mL
c1ccc(CSc2ccncc2)cc1,NJ211,>12.8 µg/mL
CCO/N=C1\[C@H](C)CC(C)(O)[C@H](O[C@@H]2O[C@H](C)C[C@H](N(C)C)[C@H]2O)[C@@H](C)[C@H](O[C@H]2C[C@@](C)(OC)[C@@H](OC(C)=O)[C@H](C)O2)[C@@H](C)C(=O)O[C@H](CC)[C@@](C)(O)[C@H](O)[C@H]1C,20096 (clarithromycin-resistant),>50 µg/mL
CC1(C)N=C(N)N=C(N)N1OCCCOc1cc(Cl)c(Cl)cc1Cl,2242,2 µg/mL
Cc1onc(-c2ccccc2Cl)c1C(=O)N[C@@H]1C(=O)N2[C@@H]1SC(C)(C)[C@@H]2C(=O)O,CIPT 140310012,100 µg/mL
O=C1c2c(Cl)cccc2-n2c1nc1ncccc1c2=O,19075,25 µg/mL
COc1ccc(OC)c(NCc2cnc3nc(N)nc(N)c3c2C)c1,NJ211,≤0.13 µg/mL
CC1CN(C(=O)OC(C)(C)C)CCN1c1cc2nc3n(c(=O)c2cc1F)-c1ccc(I)cc1C3=O,19075,25 µg/mL
CO[C@H]1/C=C/O[C@@]2(C)Oc3c(C)c(O)c4c(O)c(c5c(c4c3C2=O)NC2(CCN(CC(C)C)CC2)N=5)=NC(=O)/C(C)=C\C=C\[C@H](C)[C@H](O)[C@@H](C)[C@@H](O)[C@@H](C)[C@H](OC(C)=O)[C@@H]1C,N-978 (HIV+),0.8 µg/mL
CCCCCCCCO[C@H]1O[C@H](CO[C@H]2O[C@H](CO)[C@@H](O)[C@@H]2O)[C@@H](O)[C@@H]1O,NJ211,>128 µg/mL
O=C1c2cc(F)ccc2-n2c1nc1cc(F)c(F)cc1c2=O,101,<0.2 µg/mL